PubChem BioAssay AID1224833, University of Georgia | 2016
Here is one part, drawn at random, of about 12,000 reagents tested. About 5,600 of all reagents (46%) were called active. 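Active calls cover z-scores past 1 in both directions, so they include lowered as well as raised rotavirus replication.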

Purpose: 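Host factors restraining rotavirus as candidate antiviral genes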 (primary screen)
Cells: monkey MA104 kidney cells
Reagents: siRNA pool against human genes, 50 nM
Time to read-out: 48 h knock-down before infection; read 24 h after infection
Challenge: infection with rotavirus strain RV3 two days after transfection; infectious dose for this stage not given
Measured: 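Rotavirus antigen per well by fluorescent immunoassay, normalised to non-targeting control wells on each plate and given as a standard z-score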
Scale: z-score vs non-targeting control: higher = more rotavirus replication than with non-targeting control
Call rule: In these data the active calls have z-score vs non-targeting control at about -1 or lower, or at about 1 or higher
Meaning of the calls: active = z-score beyond 1 either way; inactive = z-score within 1 of zero

What is on record for VWA8 (von Willebrand factor A domain containing 8)?
z-score vs non-targeting control: -0.0755; activity call: inactive

Which result is listed for TMEM257 (retired record)?
z-score vs non-targeting control: 0.714; activity call: inactive

For ARFGAP1 (ARF GTPase activating protein 1), what was measured?
z-score vs non-targeting control: 0.903; activity call: inactive

What is on record for NFU1 (NFU1 iron-sulfur cluster scaffold)?
z-score vs non-targeting control: -0.873; activity call: inactive

For ITM2C (integral membrane protein 2C), what was measured?
z-score vs non-targeting control: -2.81; activity call: active

How did the screen score CCL15 (C-C motif chemokine ligand 15)?
z-score vs non-targeting control: -1.19; activity call: active

With OR1G1 (olfactory receptor family 1 subfamily G member 1), what was measured?
z-score vs non-targeting control: -2.47; activity call: active

For ZBTB48 (zinc finger and BTB domain containing 48), how do the results read?
z-score vs non-targeting control: 1.14; activity call: active

With WNT8B (Wnt family member 8B), what was measured?
z-score vs non-targeting control: 0.263; activity call: inactive

For RPS17P12 (ribosomal protein S17 pseudogene 12), how do the results read?
z-score vs non-targeting control: -1.23; activity call: active

For ZNF26 (zinc finger protein 26), what was measured?
z-score vs non-targeting control: -1.71; activity call: active

What did the screen give for SST (somatostatin)?
z-score vs non-targeting control: -0.28; activity call: inactive

With PPP2R5C (protein phosphatase 2 regulatory subunit B'gamma), what does the deposit list?
z-score vs non-targeting control: 1.18; activity call: active

For CS (citrate synthase), what was measured?
z-score vs non-targeting control: -0.861; activity call: inactive

What is on record for TRIP4 (thyroid hormone receptor interactor 4)?
z-score vs non-targeting control: -1.87; activity call: active

With SPATA2 (spermatogenesis associated 2), how do the results read?
z-score vs non-targeting control: -0.262; activity call: inactive

For NPTX1 (neuronal pentraxin 1), what was measured?
z-score vs non-targeting control: 0.888; activity call: inactive

Which result is listed for ITGA3 (integrin subunit alpha 3)?
z-score vs non-targeting control: -0.911; activity call: inactive

What is on record for CXCL8 (C-X-C motif chemokine ligand 8)?
z-score vs non-targeting control: -0.637; activity call: inactive

Which result is listed for OR1L3 (olfactory receptor family 1 subfamily L member 3)?
z-score vs non-targeting control: 1.22; activity call: active

For TAS2R45 (taste 2 receptor member 45), how do the results read?
z-score vs non-targeting control: -1.69; activity call: active

With VPS26C (VPS26 endosomal protein sorting factor C), what was measured?
z-score vs non-targeting control: 0.288; activity call: inactive

What is on record for GFI1B (growth factor independent 1B transcriptional repressor)?
z-score vs non-targeting control: -1.71; activity call: active

With FKBP2 (FKBP prolyl isomerase 2), what was measured?
z-score vs non-targeting control: 1.45; activity call: active

For ZNF451 (zinc finger protein 451), what does the deposit list?
z-score vs non-targeting control: -3.98; activity call: active

For TMEM63B (transmembrane protein 63B), how do the results read?
z-score vs non-targeting control: 0.935; activity call: inactive

With FHL5 (four and a half LIM domains 5), what does the deposit list?
z-score vs non-targeting control: 0.162; activity call: inactive

For SPMIP8 (sperm microtubule inner protein 8), what was measured?
z-score vs non-targeting control: -1.55; activity call: active

For PAIP2 (poly(A) binding protein interacting protein 2), what does the deposit list?
z-score vs non-targeting control: 0.591; activity call: inactive

For GBP3 (guanylate binding protein 3), what was measured?
z-score vs non-targeting control: 0.821; activity call: inactive

Records listed so far whose gene name begins with F or f:
FKBP2 (FKBP prolyl isomerase 2) → z-score vs non-targeting control: 1.45; activity call: active
FHL5 (four and a half LIM domains 5) → z-score vs non-targeting control: 0.162; activity call: inactive

Further records:
What did the screen give for F2R (coagulation factor II thrombin receptor)?
z-score vs non-targeting control: -1.77; activity call: active

What is on record for AHI1 (Abelson helper integration site 1)?
z-score vs non-targeting control: -0.292; activity call: inactive

For MRRF (mitochondrial ribosome recycling factor), how do the results read?
z-score vs non-targeting control: 2.48; activity call: active

What is on record for GNG11 (G protein subunit gamma 11)?
z-score vs non-targeting control: -0.0944; activity call: inactive

For GGA3, what was measured?
z-score vs non-targeting control: -1.25; activity call: active

For NDUFS3 (NADH:ubiquinone oxidoreductase core subunit S3), how do the results read?
z-score vs non-targeting control: 0.66; activity call: inactive

For MYH11 (myosin heavy chain 11), how do the results read?
z-score vs non-targeting control: 1.1; activity call: active

With METTL3, what was measured?
z-score vs non-targeting control: -0.424; activity call: inactive

For G6PD (glucose-6-phosphate dehydrogenase), what does the deposit list?
z-score vs non-targeting control: 1.94; activity call: active

Which result is listed for ZNF532 (zinc finger protein 532)?
z-score vs non-targeting control: -0.549; activity call: inactive

How did the screen score OR52N2 (olfactory receptor family 52 subfamily N member 2)?
z-score vs non-targeting control: -1.43; activity call: active

What is on record for AIG1 (androgen induced 1)?
z-score vs non-targeting control: -1.05; activity call: active

For ZNF354B (zinc finger protein 354B), how do the results read?
z-score vs non-targeting control: -0.0325; activity call: inactive

Which result is listed for CYFIP2 (cytoplasmic FMR1 interacting protein 2)?
z-score vs non-targeting control: 0.25; activity call: inactive

With TMX2 (thioredoxin related transmembrane protein 2), what does the deposit list?
z-score vs non-targeting control: 0.923; activity call: inactive

For ERG (ETS transcription factor ERG), what does the deposit list?
z-score vs non-targeting control: -1.66; activity call: active

With OCIAD1 (OCIA domain containing 1), what does the deposit list?
z-score vs non-targeting control: 0.234; activity call: inactive

With TMEM128 (transmembrane protein 128), how do the results read?
z-score vs non-targeting control: -0.861; activity call: inactive

What did the screen give for EID2 (EP300 interacting inhibitor of differentiation 2)?
z-score vs non-targeting control: 1.16; activity call: active

What did the screen give for ARK2N (arkadia (RNF111) N-terminal like PKA signaling regulator 2N)?
z-score vs non-targeting control: -0.881; activity call: inactive

With ANXA8L1 (annexin A8 like 1), how do the results read?
z-score vs non-targeting control: -0.722; activity call: inactive

For NOTCH3 (notch receptor 3), what was measured?
z-score vs non-targeting control: -1.13; activity call: active

For SLC9A8, what was measured?
z-score vs non-targeting control: 0.0305; activity call: inactive

Which result is listed for SH3YL1 (SH3 and SYLF domain containing 1)?
z-score vs non-targeting control: -0.227; activity call: inactive

How did the screen score CX3CL1 (C-X3-C motif chemokine ligand 1)?
z-score vs non-targeting control: -1.75; activity call: active

What is on record for CDC123 (cell division cycle 123)?
z-score vs non-targeting control: 0.427; activity call: inactive

With OR12D2 (olfactory receptor family 12 subfamily D member 2), what does the deposit list?
z-score vs non-targeting control: -2.09; activity call: active

For WFDC5 (WAP four-disulfide core domain 5), how do the results read?
z-score vs non-targeting control: 2.22; activity call: active

What did the screen give for OBP2A (odorant binding protein 2A)?
z-score vs non-targeting control: -0.32; activity call: inactive

With CNTFR (ciliary neurotrophic factor receptor), what does the deposit list?
z-score vs non-targeting control: -2.13; activity call: active
